According to patent US20250281457A1, “TREATMENT OR PREVENTION OF DENGUE VIRAL INFECTION” (Janssen Pharmaceuticals, Inc., priority 2022, published 2025):

Test: Taste and overall acceptability questionnaire (Example 2)
Format: in vivo, human

COc1cc(NC(C(=O)c2c[nH]c3ccc(OC(F)(F)F)cc23)c2ccc(Cl)cc2OC)cc(S(C)(=O)=O)c1 (centres unmarked) [Compound (a)]
Overall acceptability rated as "good to take" (medicine for daily intake for a long period) (Treatment J (800 mg SF2b, fasted)): 7 (87.5%) participants (%)
Overall acceptability rated as "good to take" (medicine for daily intake for a long period) (Treatment K (800 mg SF2b, high-fat, high-calorie)): 6 (75.0%) participants (%)
